Anti-infective test results gathered from many reports (values: NIAID ChemDB through PubChem).

Shared fields: whole-cell or culture tests; species: HIV-1; read-out: inhibition

Percent inhibition refers to the dose given; in toxicity tests it is the harm to the cells.

{"SMILES": "C[C@@H](C=O)NC(=O)[C@@H]1CCCN1C(=O)CN", "method": "p24", "cell line": "H9", "strain or isolate": "IIIB", "tested at": "25 µg/mL", "result": "0%"}
{"SMILES": "O=C1CSC(c2c(F)cccc2Cl)N1n1cnnc1", "method": "MTT", "cell line": "TZM-bl", "strain or isolate": "NL4-3", "tested at": "5 µg/mL", "result": "12.63%"}
{"SMILES": "Cc1ccc(C(=O)Nc2ccc(S(=O)(=O)O)c3cc(S(=O)(=O)O)cc(S(=O)(=O)O)c23)cc1NC(=O)c1cccc(NC(=O)Nc2cccc(C(=O)Nc3cc(C(=O)Nc4ccc(S(=O)(=O)O)c5cc(S(=O)(=O)O)cc(S(=O)(=O)O)c45)ccc3C)c2)c1", "method": "plaque count", "cell line": "MT-4", "strain or isolate": "HTLV-III", "tested at": "50 µg/mL", "result": "97%"}
{"SMILES": "NC(N)=NCCC[C@H](NC(=O)[C@@H](N)Cc1ccc(O)cc1)C(=O)NCC(=O)N1CCC[C@H]1C(=O)NCC=O", "method": "syncytia", "cell line": "H9", "strain or isolate": "IIIB", "tested at": "25 µg/mL", "result": "0%"}
{"SMILES": "CN=C1CN=C(c2ccc[nH]2)c2cc(Cl)ccc2N1", "method": "p24", "cell line": "C8166", "strain or isolate": "RF", "tested at": "3 µM", "result": "90%"}
{"SMILES": "CC1(C)[C@@H](O[C@H]2O[C@H](C(=O)O)[C@@H](O)[C@H](O)[C@H]2O[C@@H]2O[C@H](C(=O)O)[C@@H](O)[C@H](O)[C@H]2O)CC[C@]2(C)[C@H]3C(=O)C=C4[C@@H]5C[C@@](C)(C(=O)O)CC[C@]5(C)CC[C@@]4(C)[C@]3(C)CC[C@@H]12", "method": "ELISA", "cell line": "MT-4", "strain or isolate": "EVK", "tested at": "500 µg/mL", "result": "95.3%"}
{"SMILES": "CCCCC[C@H](O)/C=C/[C@H]1C=CC(=O)[C@@H]1CCCCCCC(=O)O", "method": "MTT / syncytia", "cell line": "CEM", "strain or isolate": "IIIB", "tested at": "30 µM", "result": "77%"}
{"SMILES": "C=C(C)[C@]12C[C@@H](COC(=O)c3ccccc3)[C@@]34O[C@]5(O[C@@H]1[C@@H]3[C@@H]1O[C@]1(CO)[C@@H](O)[C@@]1(O)[C@H]4[C@H]([C@H](C)[C@@H]1OC(=O)c1ccccc1)[C@H](C)CCCCCC[C@H]5O)O2", "cell line": "MT-4", "tested at": "0.001 µM", "result": "90%"}
{"SMILES": "C[C@@H]1[C@H](O)[C@@H](C)/C=C/C=C/C=C/C=C/C=C/C=C/C=C/[C@H](O[C@@H]2O[C@H](C)[C@@H](O)[C@H](N)[C@@H]2O)CC2O[C@](O)(CC(O)C(O)CCC(O)CC(O)CC(O)CC(=O)O[C@H]1C)CC(O)C2C(=O)O.O=S(=O)(O)O", "method": "fluorescence", "cell line": "MT-4", "strain or isolate": "LAV", "tested at": "4 µg/mL", "result": "79.6%"}
{"SMILES": "O=C(O)c1cc(O)c(O)c(O)c1", "method": "syncytia", "cell line": "MOLT-3", "strain or isolate": "IIIB", "tested at": "5 µg/mL", "result": "67%"}
{"SMILES": "NCC(=O)NCC(=O)NCC=O", "method": "syncytia", "cell line": "H9", "strain or isolate": "IIIB", "tested at": "250 µg/mL", "result": "0%"}
{"SMILES": "O=C1N(Cc2ccc(CO)cc2)[C@H](Cc2ccccc2)[C@H](O)[C@@H](O)[C@@H](Cc2ccccc2)N1Cc1ccc(CO)cc1", "method": "p24", "cell line": "PBMC", "strain or isolate": "Clinical isolate C", "tested at": "0.18 µM", "result": "90%"}
{"SMILES": "COc1cc(C[C@@](O)(C(N)=O)[C@H](CO)Cc2ccc(OC)c(OC)c2)ccc1O", "method": "p24", "cell line": "H9", "strain or isolate": "IIIB", "tested at": "1.8 µM", "result": "84%"}
{"SMILES": "Cc1ccc(-c2ccc3c(c2)C=C(C(=O)Nc2ccc(C[N+](C)(C)C4CCOCC4)cc2)CCC3)cc1", "method": "p24", "cell line": "PBMC", "strain or isolate": "KK", "tested at": "0.0208 µM", "result": "90%"}
{"SMILES": "COC(=O)[C@@H](C)NC(=O)c1c(C)cc2c(c1O)-c1c(cc3c(c1O)C(=O)c1cc(OC)cc(O)c1C3=O)[C@H](O)[C@H]2O[C@@H]1O[C@H](C)[C@H](N)[C@H](O[C@@H]2OC[C@@H](O)[C@H](O)[C@H]2O)[C@H]1O", "method": "antigen", "cell line": "MT-4", "strain or isolate": "IIIB", "tested at": "30 µg/mL", "result": "15%"}
{"SMILES": "Cc1cn([C@H]2C[C@H](N=[N+]=[N-])[C@@H](COP(=O)(O)OC[C@H]3OC(O)[C@@H](O)[C@@H](O)[C@@H]3O)O2)c(=O)[nH]c1=O", "method": "RT activity", "cell line": "CEM", "setting": "15 d", "strain or isolate": "LAV-Bru", "tested at": "0.2 µM", "result": "91%"}
{"SMILES": "C[C@@H](Cn1cnc2c(N)ncnc21)OCP(=O)(O)O", "method": "p24", "cell line": "Macrophage + Monocytes/macrophages", "strain or isolate": "BaL", "tested at": "0.5 µM", "result": "20%"}
{"SMILES": "CCc1cc(NCc2nc3c(Cl)ccc(Cl)c3o2)c(=O)[nH]c1C", "method": "p24", "cell line": "PBMC", "strain or isolate": "Clinical isolate (RT M41L)", "tested at": "0.1 µM", "mutations": "RT-M41L", "result": "90%"}
{"SMILES": "Cc1cn([C@H]2C[C@H](N=[N+]=[N-])[C@@H](CO)O2)c(=O)[nH]c1=O", "method": "p24", "cell line": "H9", "strain or isolate": "IIIB", "tested at": "0.08 µg/mL", "result": "0%"}
{"SMILES": "COc1ccc(CN[C@@H](C(=O)N[C@H](C(=O)NCc2nc3ccccc3[nH]2)C(C)C)[C@H](O)[C@H](Cc2ccccc2)NC(=O)[C@@H](NC(=O)OCc2ccccc2)C(C)(C)C)cc1", "method": "p24", "cell line": "Monocytes + Monocyte", "setting": "clinical isolate", "strain or isolate": "SF162", "tested at": "0.046 µM", "result": "90%"}
{"SMILES": "O[C@H]1OC[C@H](Cc2ccc3c(c2)OCO3)[C@H]1Cc1ccc2c(c1)OCO2", "method": "p24", "cell line": "H9", "strain or isolate": "IIIB", "tested at": "12.7 µM", "result": "91%"}
{"SMILES": "CCC(C)[C@H](NC(=O)[C@H](C(C)C)[C@@H](O)[C@H](O)[C@H](CC1CCCCC1)NC(=O)c1ccccc1SCCCCC[C@@H]1SC[C@@H]2NC(=O)NC21)C(=O)NCc1ccccn1", "cell line": "PBMC", "strain or isolate": "D34", "tested at": "0.1 µM", "result": "17%"}
{"SMILES": "O=C1CSC(c2c(Cl)cncc2Cl)N1n1cnnc1", "method": "MTT", "cell line": "TZM-bl", "strain or isolate": "NL4-3", "tested at": "5 µg/mL", "result": "26.58%"}
{"SMILES": "Nc1cccc(CN2C(=O)N(Cc3cccc(N)c3)[C@H](Cc3ccccc3)[C@H](O)[C@@H](O)[C@H]2Cc2ccccc2)c1", "method": "virus yield", "cell line": "MT-2", "strain or isolate": "THAI (PR-WT)", "tested at": "0.13 µM", "result": "90%"}
{"SMILES": "NC(N)=NCCC[C@@H](C=O)NC(=O)CNC(=O)[C@@H]1CCCN1C(=O)CNC(=O)[C@@H](N)CCCN=C(N)N", "method": "p24", "cell line": "HUT", "strain or isolate": "ELI", "tested at": "250 µg/mL", "result": "0%"}
{"SMILES": "CC(C)c1nc(CN(C)C(=O)N[C@H](C(=O)N[C@@H](Cc2ccccc2)C[C@H](O)[C@H](Cc2ccccc2)NC(=O)OCc2cncs2)C(C)C)cs1", "method": "β-galactosidase", "cell line": "MAGI", "strain or isolate": "IIIB", "tested at": "0.1 µg/mL", "result": "0%"}
{"SMILES": "CC(=O)O[C@H]1C[C@@]2(C)[C@@H](C[C@@H](O)[C@H]3[C@@]4(C)CC[C@@H](O)[C@@H](C)[C@@H]4CC[C@@]32C)/C1=C(\\CCC=C(C)C)C(=O)O", "method": "syncytia", "cell line": "C8166", "strain or isolate": "ARV-2", "tested at": "100 µg/mL", "result": "100%"}
{"SMILES": "Cc1cn([C@H]2C[C@H](N=[N+]=[N-])[C@@H](CO)O2)c(=O)[nH]c1=O", "method": "luciferase", "cell line": "Jurkat cells", "strain or isolate": "NL4-3 Recombinant", "tested at": "0.005 µM", "result": "45%"}
{"SMILES": "COc1cc(C[C@H]2C(=O)OC[C@@H]2Cc2ccc(OC)c(OC)c2)ccc1O", "method": "syncytia", "cell line": "H9", "strain or isolate": "IIIB", "tested at": "0.13 µM", "result": "81%"}
{"SMILES": "Cc1cc(C)nc(N2C(=O)CSC2c2c(Cl)ncnc2Cl)n1", "method": "MTT", "cell line": "TZM-bl", "strain or isolate": "NL4-3", "tested at": "5 µg/mL", "result": "71.65%"}
{"SMILES": "Cc1cn([C@H]2C[C@H](N=[N+]=[N-])[C@@H](CO)O2)c(=O)[nH]c1=O", "method": "RT activity", "cell line": "U-937", "setting": "7 d", "strain or isolate": "LAV-Bru", "tested at": "25 µM", "result": "96%"}
{"SMILES": "COc1cc(O)c2c(c1)C(=O)c1c(cc3c(c1O)-c1c(cc(C)c(C(=O)N[C@H](C)C(=O)O)c1O)[C@H](O[C@@H]1O[C@H](C)[C@H](NC(C)=O)[C@H](O[C@@H]4OC[C@@H](O)[C@H](O)[C@H]4O)[C@H]1O)[C@H]3O)C2=O", "method": "antigen", "cell line": "MT-4", "strain or isolate": "IIIB", "tested at": "30 µg/mL", "result": "<10%"}
{"SMILES": "c1cc2c(cc1[C@H]1OC[C@H]3[C@@H]1CO[C@@H]3c1ccc3c(c1)OCO3)OCO2", "method": "syncytia", "cell line": "H9", "strain or isolate": "IIIB", "tested at": "8.2 µM", "result": "84%"}
{"SMILES": "O=C(O)/C=C/c1ccc[c]([Sb](=[O])([OH])[OH])c1", "method": "β-galactosidase", "cell line": "MAGI", "strain or isolate": "92US077 X4/R5 clinical isolate", "tested at": "20 µM", "result": "55.9%"}
{"SMILES": "CCCCC[C@H](O)/C=C/C1[C@H](O)CC(=O)[C@@H]1CCCCCCC(=O)O", "method": "syncytia", "cell line": "C8166", "strain or isolate": "IIIB", "tested at": "40 µM", "result": "0%"}
{"SMILES": "[B-]P(=O)([O-])CC[C@@H]1C=C[C@H](n2cc(C)c(=O)[nH]c2=O)O1", "method": "syncytia", "cell line": "CEM", "strain or isolate": "IIIB", "tested at": "400 µM", "result": "0%"}
{"SMILES": "COc1cc(O)c2c(c1)C(=O)c1c(cc3c(c1O)-c1c(cc(C)c(C(=O)N[C@H](C)C(=O)O)c1O)[C@H](O[C@@H]1O[C@H](C)[C@H](N)[C@H](O[C@@H]4OC[C@@H](O)[C@H](O)[C@@H]4O)[C@H]1O)[C@H]3O)C2=O", "method": "antigen", "cell line": "MT-4", "strain or isolate": "IIIB", "tested at": "10 µg/mL", "result": "99%"}
{"SMILES": "Cc1cn([C@H]2C[C@H](N=[N+]=[N-])[C@@H](COP(=O)(O)OC[C@H]3OC(O)[C@H](O)[C@@H](O)[C@@H]3O)O2)c(=O)[nH]c1=O", "method": "RT activity", "cell line": "CEM", "setting": "7 d", "strain or isolate": "LAV-Bru", "tested at": "5 µM", "result": "95%"}
{"SMILES": "Cc1coc(N2C(=O)CSC2c2c(Cl)ncnc2Cl)n1", "method": "MTT", "cell line": "TZM-bl", "strain or isolate": "NL4-3", "tested at": "5 µg/mL", "result": "<5%"}
{"SMILES": "OC[C@H]1O[C@@H](n2cnc3c2NC=NC[C@H]3O)C[C@@H]1O", "method": "cytopathic effect", "cell line": "ATH8", "tested at": "0.02 µM", "result": "0%"}
{"SMILES": "COc1cc(O)c2c(c1)C(=O)c1c(cc3c(c1O)-c1c(cc(C)c(C(=O)N[C@H](C)C(=O)O)c1O)[C@H](O[C@@H]1O[C@H](C)[C@H](O)[C@H](O[C@@H]4OC[C@@H](O)[C@H](O)[C@H]4O)[C@H]1O)[C@H]3O)C2=O", "method": "antigen", "cell line": "MT-4", "strain or isolate": "IIIB", "tested at": "30 µg/mL", "result": "99%"}
{"SMILES": "Nc1ncnc2c1ncn2[C@H]1CC[C@@H](CO)O1", "method": "virus yield", "cell line": "CEM", "strain or isolate": "LAV-1", "tested at": "100 µM", "result": ">100%"}
{"SMILES": "C[C@H](Cn1cnc2c(N)ncnc21)OCP(=O)(O)O", "method": "p24 / syncytia", "cell line": "Macrophage + Monocytes/macrophages", "strain or isolate": "BaL", "tested at": "0.5 µM", "result": "98%"}
{"SMILES": "NC(N)=NCCC[C@@H](C=O)NC(=O)CNC(=O)[C@@H]1CCCN1", "method": "syncytia", "cell line": "H9", "strain or isolate": "IIIB", "tested at": "250 µg/mL", "result": "0%"}

Repeating the final 4 entries:

SMILES,method,cell line,setting,strain or isolate,tested at,mutations,result
COc1cc(O)c2c(c1)C(=O)c1c(cc3c(c1O)-c1c(cc(C)c(C(=O)N[C@H](C)C(=O)O)c1O)[C@H](O[C@@H]1O[C@H](C)[C@H](O)[C@H](O[C@@H]4OC[C@@H](O)[C@H](O)[C@H]4O)[C@H]1O)[C@H]3O)C2=O,antigen,MT-4,,IIIB,30 µg/mL,,99%
Nc1ncnc2c1ncn2[C@H]1CC[C@@H](CO)O1,virus yield,CEM,,LAV-1,100 µM,,>100%
C[C@H](Cn1cnc2c(N)ncnc21)OCP(=O)(O)O,p24 / syncytia,Macrophage + Monocytes/macrophages,,BaL,0.5 µM,,98%
NC(N)=NCCC[C@@H](C=O)NC(=O)CNC(=O)[C@@H]1CCCN1,syncytia,H9,,IIIB,250 µg/mL,,0%

Lines come from different laboratories, so protocols vary. Blank or dashed fields: not listed here.